## Replication capacity of HIV-1 mutants, protease

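Seven fragments of pNL4-3 were mutated by error-prone PCR, and each virus pool was passaged in CEM T cells. Sequencing gave the RC index: frequency after two rounds over frequency in the input plasmid.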

Protein: protease of HIV-1 NL4-3, numbered from its first residue. The source prints no sequence; the chain below is taken from UniProt P12497, a closely related isolate, and fits the source at the 87 positions it covers.
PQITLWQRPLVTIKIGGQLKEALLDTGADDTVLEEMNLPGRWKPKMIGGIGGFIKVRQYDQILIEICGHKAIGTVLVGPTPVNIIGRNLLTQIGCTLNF
The overlapping Gag p6 frame may change too; the source does not say.
Effects on overlapping genes or RNA elements are not listed.

RC index: lower means poorer replication; rough cut-offs are 0.1 (lethal) and 0.2 (tolerated).
Substitutions are written as wild-type residue, site number, new residue.
Input reads are the counts in the plasmid library.
Base changes are numbered along pNL4-3.

D60V (base A2431T, input reads 739) gave 0.0516.
T80A (base A2490G, input reads 367) gave 0.0467.
T26A (base A2328G, input reads 380) gave 0.0886.
I93T (base T2530C, input reads 378) gave 0.0713.
W42R (base T2376C, input reads 144) gave 0.0623.
P81H (base C2494A, input reads 597) gave 0.111.
R41G (base A2373G, input reads 365) gave 0.0553.
I15L (base A2295C, input reads 72) gave 0.0571.
I50N (base T2401A, input reads 400) gave 0.0449.
E65K (base G2445A, input reads 377) gave 0.513.
T31S (base A2343T, input reads 567) gave 0.0317.
L38F (base G2366T, input reads 96) gave 0.187.
T26K (base C2329A, input reads 176) gave 0.115.
K20R (base A2311G, input reads 192) gave 0.203.
V75G (base T2476G, input reads 92) gave 0.0266.
Q18L (base A2305T, input reads 588) gave 0.0280.
V82D (base T2497A, input reads 462) gave 0.0530.
N88D (base A2514G, input reads 284) gave 0.0690.
T4I (base C2263T, input reads 502) gave 0.233.
L90S (base T2521C, input reads 477) gave 0.0719.
L19I (base T2307A, input reads 344) gave 0.0717.
G52V (base G2407T, input reads 33) gave 0.748.
R57G (base A2421G, input reads 422) gave 0.0691.
F53S (base T2410C, input reads 428) gave 0.105.
T31A (base A2343G, input reads 353) gave 0.102.
V77A (base T2482C, input reads 328) gave 0.120.
I72V (base A2466G, input reads 677) gave 0.0434.
I15T (base T2296C, input reads 341) gave 0.0482.
N88Y (base A2514T, input reads 398) gave 0.0431.
I62V (base A2436G, input reads 181) gave 0.0496.
G68R (base G2454A, input reads 736) gave 0.133.
M46V (base A2388G, input reads 188) gave 0.0358.
L76S (base T2479C, input reads 262) gave 0.0842.
C95S (base G2536C, input reads 225) gave 0.0436.
G94D (base G2533A, input reads 1031) gave 0.188.
Q92R (base A2527G, input reads 585) gave 0.201.
I62T (base T2437C, input reads 624) gave 0.0641.
K14R (base A2293G, input reads 935) gave 0.0264.
I15V (base A2295G, input reads 423) gave 0.0535.
V82L (base G2496C, input reads 161) gave 0.0913.
I66F (base A2448T, input reads 417) gave 0.0529.
A71D (base C2464A, input reads 106) gave 0.231.
G17R (base G2301A, input reads 1136) gave 0.0887.
I93N (base T2530A, input reads 902) gave 0.0407.
D30Y (base G2340T, input reads 77) gave 0.524.

3 of these entries, quoted again:

mutation,base,input reads,RC
K20R,A2311G,192,0.203
I66F,A2448T,417,0.0529
T31S,A2343T,567,0.0317

Since each clone held several changes (about five per kb), neutral changes can read low.
An index over 1, which the authors read as above wild type, was rare (1.9% of all changes in the genome).

The measurements come from Al-Mawsawi et al. 2014 (doi:10.1186/s12977-014-0124-6).